Experimental findings from ChEMBL document CHEMBL1137608, “Design of a potent reactivator of tabun-inhibited acetylcholinesterase--synthesis and evaluation of (E)-1-(4-carbamoylpyridinium)-4-(4-hydroxyiminomethylpyridinium)-but-2-ene dibromide (K203)” (2007) are described below.

The subject of the data set is Rattus norvegicus. Put plainly: Toxicity in intramuscular dosed rat after 24 hrs. The settings on record: in vivo, im.

`NC(=O)c1cc[n+](C/C=C/C[n+]2ccc(/C=N/O)cc2)cc1.[Br-].[Br-]` came in with an LD50 of 326 mg/kg.

Compound `NC(=O)c1cc[n+](CCCC[n+]2ccc(/C=N/O)cc2)cc1.[Br-].[Br-]` came in with a 50% lethal dose (LD50) of more than 1200 mg/kg.

Regarding `NC(=O)c1cc[n+](CCC[n+]2ccc(/C=N/O)cc2)cc1.[Br-].[Br-]`, the LD50 is more than 1200 mg/kg.
